Compound potency records, mixed from different reports. Data source: NIAID ChemDB in PubChem.

Shared fields: growth or infection tests

MIC50, MIC90 and the like: level of inhibition, or share of isolates inhibited. Blank or dashed fields: not listed here. Percent inhibition refers to the dose given; in toxicity tests it is the harm to the cells. a–b is a range or a potency band. Lines come from different laboratories, so protocols vary.

smiles	setting	organism	strain	read by	dose	read-out	value
Clc1ccc(Nc2nnc(-c3ccncc3)o2)cc1Cl	21 d	Mycobacterium kansasii	My 235/80	broth dilution	-	MIC100	>125 µM
CC[C@H]1OC(=O)[C@H](C)[C@@H](O[C@H]2C[C@@](C)(OC)[C@@H](OC(C)=O)[C@H](C)O2)[C@H](C)[C@@H](O[C@@H]2O[C@H](C)C[C@H](N(C)C)[C@H]2O)C(C)(O)C[C@@H](C)/C(=N\OCCOc2ccccc2)[C@H](C)[C@@H](O)[C@]1(C)O	-	Mycobacterium avium complex	20092 (clarithromycin-resistant)	-	-	MIC	6.25 µg/mL
Fc1cc(Br)ccc1Nc1nnc(-c2ccncc2)o1	14 d	Mycobacterium kansasii	My 235/80	broth dilution	-	MIC100	>125 µM
C[C@@H]1CN(c2c(F)c(N)c3c(=O)c(C(=O)O)cn(C4CC4)c3c2F)C[C@H](C)N1	-	Mycobacterium avium intracellulare	N-475 (HIV-)	-	-	MIC	0.25 µg/mL
CCCCCCCCc1ccc(NC(=O)NNC(=O)c2ccncc2)cc1	21 d	Mycobacterium kansasii	My 6509/96	broth dilution	-	MIC100	500 µM
Cc1ccc2oc(=S)n(-c3cccc(F)c3)c(=S)c2c1	21 d	Mycobacterium kansasii	6509/96	-	-	MIC	16 µM
NNC(=O)c1ccncc1	-	Mycobacterium avium complex	N-238 (HIV-)	-	-	MIC	4 µg/mL
CCCCCCCCCCCCCCCOC(=O)NC(CCC(=O)O)(CCC(=O)O)CCC(=O)O	-	Mycobacterium smegmatis	mc155	-	-	MIC	36 µg/mL
CO[C@H]1/C=C/O[C@@]2(C)Oc3c(C)c(O)c4c(O)c(c(/C=N/N5CCN(C6CCCC6)CC5)c(O)c4c3C2=O)NC(=O)/C(C)=C\C=C\[C@H](C)[C@H](O)[C@@H](C)[C@@H](O)[C@@H](C)[C@H](OC(C)=O)[C@@H]1C	-	Mycobacterium avium intracellulare	21 strains	-	-	MIC50	0.25 µg/mL
CCCCCCCCCCCCCCCCCCCCCCCOC(=O)NC(CCC(=O)O)(CCC(=O)O)CCC(=O)O	-	Mycobacterium abscessus	AAy-P-1	-	-	MIC	576 µg/mL
CCc1nc2ccc(Cl)cn2c1C(=O)NCc1ccc(N2CCOCC2)cc1	-	Mycobacterium ulcerans	-	fluorescence	-	MIC50	0.1–1 µg/mL
Cc1ccc(-n2c(=S)oc3ccc(Br)cc3c2=S)cc1	21 d	Mycobacterium kansasii	6509/96	-	-	MIC	4 µM
Cc1nc2cc(F)ccn2c1C(=O)NCc1ccc(N2CCC(c3ccc(OC(F)(F)F)cc3)CC2)c(F)c1	-	Mycobacterium avium	-	fluorescence	0.016 µM	inhibition	85%
CO[C@H]1/C=C/O[C@@]2(C)Oc3c(C)c(O)c4c(=O)c(c5oc6cc(N7CCN(CC(C)C)CC7)cc(=O)c6nc5c4c3=C2O)NC(=O)/C(C)=C\C=C\[C@H](C)[C@H](O)[C@@H](C)[C@@H](O)[C@@H](C)[C@H](OC(C)=O)[C@@H]1C	-	Mycobacterium ulcerans	ATCC 35840	-	-	MBC	0.025 µg/mL
CO[C@@]1(NC(=O)Cn2cnnn2)C(=O)N2C(C(=O)O)=C(CSc3nnc(C)s3)CSC21	-	Mycobacterium fortuitum	1048	-	-	MIC	100 µg/mL
CC1(C)N=C(N)N=C(N)N1OCCCOc1cc(Cl)c(Cl)cc1Cl	-	Mycobacterium avium complex	1439	-	-	MIC	4 µg/mL
CC[C@H]1OC(=O)[C@H](C)[C@@H](OC(=O)Cc2ccncc2)[C@H](C)[C@@H](O[C@@H]2O[C@H](C)C[C@H](N(C)C)[C@H]2O)C(C)(O)C[C@@H](C)/C(=N\OCCCOc2ccccc2)[C@H](C)[C@@H](O)[C@]1(C)O	-	Mycobacterium avium intracellulare	20066 (clarithromycin-susceptible)	-	-	MIC	12.5 µg/mL
CCCCCCCCC(CCCCCCCC)NC(=O)NC(CCC(=O)O)(CCC(=O)O)CCC(=O)O	-	Mycobacterium chelonae	EO-P-1	-	-	MIC	144 µg/mL
Cc1ccn2c(C(=O)NCc3ccc(N4CC=C(c5ccc(OC(F)(F)F)cc5)CC4)c(F)c3)c(C)nc2c1.Cl	-	Mycobacterium avium	-	fluorescence	0.2 µM	inhibition	85%
NCC[C@H](O)C(=O)N[C@@H]1C[C@H](N)[C@@H](O[C@H]2O[C@H](CN)[C@@H](O)[C@H](O)[C@H]2O)[C@H](O)[C@H]1O[C@H]1O[C@H](CO)[C@@H](O)[C@H](N)[C@H]1O	-	Mycobacterium abscessus	DSM44196	broth dilution / visual reading	-	MIC100	4–8 µg/mL
Cc1cc(CNC(=O)c2c(Cl)nc3ccccn23)ccc1N(C)C	-	Mycobacterium ulcerans	-	fluorescence	-	MIC50	0.01–0.1 µg/mL
Cc1ccn2c(C(=O)NCc3ccc(N4CCC(c5ccc(OC(F)(F)F)cc5)CC4)c(Cl)c3)c(C)nc2c1.Cl	-	Mycobacterium avium	-	fluorescence	0.5 µM	inhibition	85%
CC[C@H]1OC(=O)[C@H](C)[C@@H](O[C@H]2C[C@@](C)(OC)[C@@H](OC(C)=O)[C@H](C)O2)[C@H](C)[C@@H](O[C@@H]2O[C@H](C)C[C@H](N(C)C)[C@H]2O)C(C)(O)C[C@@H](C)/C(=N\OCCc2cccs2)[C@H](C)[C@@H](O)[C@]1(C)O	-	Mycobacterium avium complex	20039 (clarithromycin-susceptible)	-	-	MIC	1.56 µg/mL
CO[C@@]1(NC(=O)Cc2ccccc2)C(=O)N2C(C(=O)[O-])=C(CSc3nnc(C)s3)CSC21	-	Mycobacterium fortuitum	1049	-	-	MIC	25 µg/mL
CC[C@H]1OC(=O)[C@H](C)[C@@H](OC2C[C@@](C)(OC)[C@@H](OC(=O)Cc3ccccc3)[C@H](C)O2)[C@H](C)[C@@H](O[C@@H]2O[C@H](C)C[C@H](N(C)C)[C@H]2O)C(C)(O)C[C@@H](C)/C(=N\OCCCOc2ccccc2)[C@H](C)[C@@H](O)[C@]1(C)O	-	Mycobacterium avium complex	20039 (clarithromycin-susceptible)	-	-	MIC	0.78 µg/mL
COc1ccc2oc(=S)n(-c3ccc(C(F)(F)F)cc3)c(=S)c2c1	14 d	Mycobacterium kansasii	My 235/80	-	-	MIC	32 µM
CCc1nc2cc(F)ccn2c1C(=O)NCc1ccc(N2CCN(c3ccc(OC4CC4)cc3)[C@@H](C)C2)c(F)c1.Cl	-	Mycobacterium avium	-	fluorescence	0.0093 µM	inhibition	85%
Nc1ccc(S(=O)(=O)c2ccc(N)cc2)cc1	-	Mycobacterium avium complex	9141	-	-	MIC	32 µg/mL
CCCCCCCCCCC(CCCCCCCCCC)NC(=O)NC(CCC(=O)O)(CCC(=O)O)CCC(=O)O	-	Mycobacterium marinum	ATCC 927	-	-	MIC	216 µg/mL
Oc1ccc(-c2n[nH]c(C(F)(F)F)c2-c2ccccc2)c(O)c1	-	Mycobacterium marinum	-	visual reading	-	MIC	50 µg/mL
CC[C@H]1OC(=O)[C@H](C)[C@@H](OC2C[C@@](C)(OC)[C@@H](OC(=O)CCc3ccccc3)[C@H](C)O2)[C@H](C)[C@@H](O[C@@H]2O[C@H](C)C[C@H](N(C)C)[C@H]2O)C(C)(O)C[C@@H](C)/C(=N\OCCCOc2ccccc2)[C@H](C)[C@@H](O)[C@]1(C)O	-	Mycobacterium avium complex	20092 (clarithromycin-resistant)	-	-	MIC	1.56 µg/mL
NCC[C@H](O)C(=O)N[C@@H]1C[C@H](N)[C@@H](O[C@H]2O[C@H](CN)[C@@H](O)[C@H](O)[C@H]2O)[C@H](O)[C@H]1O[C@H]1O[C@H](CO)[C@@H](O)[C@H](N)[C@H]1O	-	Mycobacterium abscessus	AAy-P-1	-	-	MIC	19 µg/mL
CC1(C)N=C(N)N=C(N)N1OCCCOc1cc(Cl)c(Cl)cc1Cl	-	Mycobacterium avium complex	DW25	-	-	MIC	2 µg/mL
CO[C@H]1/C=C/O[C@@]2(C)Oc3c(C)c(O)c4c(O)c(c5c(c4c3C2=O)NC2(CCN(CC(C)C)CC2)N=5)=NC(=O)/C(C)=C\C=C\[C@H](C)[C@H](O)[C@@H](C)[C@@H](O)[C@@H](C)[C@H](OC(C)=O)[C@@H]1C	-	Mycobacterium avium complex	N-325 (HIV-)	-	-	MIC	1 µg/mL
CC[C@H]1OC(=O)[C@H](C)[C@@H](OC2C[C@@](C)(OC)[C@@H](O)[C@H](C)O2)[C@H](C)[C@@H](O[C@@H]2O[C@H](C)C[C@H](N(C)C)[C@H]2O)C(C)(O)C[C@@H](C)/C(=N\OCCN(C)c2ccccc2)[C@H](C)[C@@H](O)[C@]1(C)O	-	Mycobacterium avium complex	20092 (clarithromycin-resistant)	-	-	MIC	25 µg/mL
COc1ccc2oc(=S)n(-c3ccc(F)cc3)c(=S)c2c1	14 d	Mycobacterium kansasii	6509/96	-	-	MIC	16 µM
CO[C@@]1(NC(=O)CSCC#N)C(=O)N2C(C(=O)O)=C(CSc3nnnn3C)CS[C@@H]21	-	Mycobacterium fortuitum	1049	-	-	MIC	6.25 µg/mL
COc1ccc(-c2c(-c3ccc(OC)cc3O)n[nH]c2C(F)(F)F)cc1	-	Mycobacterium marinum	-	visual reading	-	MIC	50 µg/mL
Fc1cc(Nc2nnc(-c3ccncc3)o2)ccc1Br	14 d	Mycobacterium kansasii	My 6509/96	broth dilution	-	MIC100	>125 µM
COc1ccc(-c2c(-c3ccc(OCc4ccc(F)cc4)cc3O)n[nH]c2C(F)(F)F)cc1	-	Mycobacterium marinum	-	visual reading	-	MIC	>50 µg/mL
CO[C@@]1(NC(=O)Cc2cccs2)C(=O)N2C(C(=O)O)=C(COC(N)=O)CS[C@@H]21	-	Mycobacterium fortuitum	1048	-	-	MIC	12.5 µg/mL
CCCCc1ccc(NC(=O)NNC(=O)c2ccncc2)cc1	21 d	Mycobacterium kansasii	My 235/80	broth dilution	-	MIC100	125 µM
CCO/N=C1\[C@H](C)CC(C)(O)[C@H](O[C@@H]2O[C@H](C)C[C@H](N(C)C)[C@H]2O)[C@@H](C)[C@H](O[C@H]2C[C@@](C)(OC)[C@@H](OC(C)=O)[C@H](C)O2)[C@@H](C)C(=O)O[C@H](CC)[C@@](C)(O)[C@H](O)[C@H]1C	-	Mycobacterium avium intracellulare	20066 (clarithromycin-susceptible)	-	-	MIC	>50 µg/mL
CO[C@@]1(NC(=O)C2SC(=C(C(N)=O)C(=O)[O-])S2)C(=O)N2C(C(=O)[O-])=C(CSc3nnnn3C)CS[C@@H]21	-	Mycobacterium fortuitum	1261	-	-	MIC	25 µg/mL
CCCCCCCNC(=O)NNC(=O)c1ccncc1	7 d	Mycobacterium kansasii	My 235/80	broth dilution	-	MIC100	32 µM
Fc1ccc2oc(=S)n(-c3ccc(C(F)(F)F)cc3)c(=S)c2c1	14 d	Mycobacterium kansasii	6509/96	-	-	MIC	8 µM
O=C(NNC(=O)c1ccncc1)Nc1ccc(F)c(Cl)c1	21 d	Mycobacterium kansasii	My 6509/96	broth dilution	-	MIC100	>125 µM
Cc1ccn2c(C(=O)NCc3ccc(OC(F)(F)F)cc3)c(C)nc2c1	-	Mycobacterium ulcerans	-	fluorescence	-	MIC50	0.1–1 µg/mL
CC[C@H]1OC(=O)[C@H](C)[C@@H](OC2C[C@@](C)(OC)[C@@H](OC(=O)CCCc3ccccc3)[C@H](C)O2)[C@H](C)[C@@H](O[C@@H]2O[C@H](C)C[C@H](N(C)C)[C@H]2O)C(C)(O)C[C@@H](C)/C(=N\OCCCOc2ccccc2)[C@H](C)[C@@H](O)[C@]1(C)O	-	Mycobacterium avium intracellulare	20066 (clarithromycin-susceptible)	-	-	MIC	0.78 µg/mL
COc1ccc(-c2c(-c3ccc(OCc4ccccc4)cc3O)n[nH]c2C(F)(F)F)cc1	-	Mycobacterium marinum	-	visual reading	-	MIC	12.5 µg/mL
CCCCCCCCCCCCCCCCCCCCNC(=O)NC(CCC(=O)O)(CCC(=O)O)CCC(=O)O	-	Mycobacterium abscessus	AAy-P-1	-	-	MIC	4.5 µg/mL
CNC(=O)C1CCC(NC(=O)c2c(Cl)nc3ccccn23)CC1	-	Mycobacterium ulcerans	-	fluorescence	-	MIC50	>10 µg/mL
Fc1ccc2oc(=S)n(-c3ccc(Cl)c(Cl)c3)c(=S)c2c1	21 d	Mycobacterium kansasii	6509/96	-	-	MIC	2 µM
CCNC(=O)c1c(C)nc2ccccn12	-	Mycobacterium ulcerans	-	fluorescence	-	MIC50	>10 µg/mL
CC[C@H]1OC(=O)[C@H](C)[C@@H](OC2C[C@@](C)(OC)[C@@H](O)[C@H](C)O2)[C@H](C)[C@@H](O[C@@H]2O[C@H](C)C[C@H](N(C)C)[C@H]2O)C(C)(O)C[C@@H](C)/C(=N\OCCCC2CCCCC2)[C@H](C)[C@@H](O)[C@]1(C)O	-	Mycobacterium avium complex	20096 (clarithromycin-resistant)	-	-	MIC	6.25 µg/mL
CCc1nc2ccc(Cl)cn2c1C(=O)NCc1ccc(N2CCN(c3ccc(OC(F)(F)F)cc3)C3(CCCC3)C2)c(F)c1	-	Mycobacterium avium	-	fluorescence	0.086 µM	inhibition	85%
CO[C@H]1/C=C/O[C@@]2(C)Oc3c(C)c(O)c4c(=O)c(c5oc6cc(N7CCN(CC(C)C)CC7)cc(=O)c6nc5c4c3=C2O)NC(=O)/C(C)=C\C=C\[C@H](C)[C@H](O)[C@@H](C)[C@@H](O)[C@@H](C)[C@H](OC(C)=O)[C@@H]1C	-	Mycobacterium avium complex	N-976 (HIV+)	-	-	MIC	0.0313 µg/mL